Experimental findings from patent US7902327B2, “Dendrimeric peptides, pharmaceutical compositions and methods of using the same” (New York University School of Medicine, priority 2007, dated 2011) are described below.

This data set has as its system B. anthracis (32F2 Sterne). Particulars: hemolytic index HD50/MIC50.

SMILES strings stand for the structures. Where a SMILES comes first, the peptide text is derived from it. Side-chain parts run from the residue outwards. [ ]: non-standard residue; d: D form. The star is where a group is joined. Lys(α,ε-(ArgTrp)2) = N=C(N)NCCC[C@H](N)C(=O)N[C@@H](Cc1c[nH]c2ccccc12)C(=O)NCCCC[C@H](NC(=O)[C@H](Cc1c[nH]c2ccccc12)NC(=O)[C@@H](N)CCCNC(=N)N)C(=O)*; βAla = NCCC(=O)O

As for `CC[C@H](C)[C@H](N)C(=O)N[C@@H](CC(C)C)C(=O)N1CCC[C@H]1C(=O)N[C@@H](Cc1c[nH]c2ccccc12)C(=O)N[C@@H](CCCCN)C(=O)N[C@@H](Cc1c[nH]c2ccccc12)C(=O)N1CCC[C@H]1C(=O)N[C@@H](Cc1c[nH]c2ccccc12)C(=O)N[C@@H](Cc1c[nH]c2ccccc12)C(=O)N1CCC[C@H]1C(=O)N[C@@H](Cc1c[nH]c2ccccc12)C(=O)N[C@@H](CCCNC(=N)N)C(=O)N[C@@H](CCCNC(=N)N)C(N)=O` [Indolicidin, reference compound], the “HI B. anthracis” value is 35.7. The figure for `N=C(N)NCCC[C@H](N)C(=O)N[C@@H](Cc1c[nH]c2ccccc12)C(=O)NCCCC[C@H](NC(=O)[C@H](Cc1c[nH]c2ccccc12)NC(=O)[C@@H](N)CCCNC(=N)N)C(=O)NCCCC[C@H](NC(=O)[C@H](CCCCNC(=O)[C@H](Cc1c[nH]c2ccccc12)NC(=O)[C@@H](N)CCCNC(=N)N)NC(=O)[C@H](Cc1c[nH]c2ccccc12)NC(=O)[C@@H](N)CCCNC(=N)N)C(=O)NCCC(N)=O` [Den(RW)4D] (H-RWK([Trp-Arg])K(Lys(α,ε-(ArgTrp)2))[βAla]-NH2) is 105.
